In patent US20210070843A1:
Numbering of substitutions follows the chain as printed.

B1: P26 (antibody, V domains shown)
VH: EVQLVESGGGLVQPGGSLRLSCAASGFTIDNSWIHWVRQAPGKGLEWVASIGPYWGYTSYADSVKGRFTISADTSKNTAYLQMNSLRAEDTAVYYCARFVFFLPYAMDYWGQGTLVTVSS
VL: DIQMTQSPSSLSASVGDRVTITCRASQDVWSGVAWYQQKPGKAPKLLIYGTTYLYSGVPSRFSGSGSGTDFTLTISSLQPEDFATYYCQQYYSFLLTFGQGTKVEIKR
B2: P37 (antibody, V domains shown)
VH: EVQLVESGGGLVQPGGSLRLSCAASGFTFNSWGIHWVRQAPGKGLEWVAGIWPYWGFTYYADSVKGRFTISADTSKNTAYLQMNSLRAEDTAVYYCARFHGSSYYSVMDYWGQGTLVTVSS
VL: DIQMTQSPSSLSASVGDRVTITCRASQDVGNDVAWYQQKPGKAPKLLISSARGLYSGVPSRFSGSGSGTDFTLTISSLQPEDFATYYCQQYYNFPITFGQGTKVEIKR
B3: P01 (antibody, V domains shown)
VH: EVQLVESGGGLVQPGGSLRLSCAASGFTIGDGSIHWVRQAPGKGLEWVAWIGPYGGSTFYADSVKGRFTISADTSKNTAYLQMNSLRAEDTAVYYCARFFWGINMDYWGQGTLVTVSS
VL: B1 VL with W30G, S31W, G32Y, T51S, Y53F, S93D, F94S, L95P
B4: P04 (antibody, V domains shown)
VH: EVQLVESGGGLVQPGGSLRLSCAASGFTINSWSIHWVRQAPGKGLEWVASIWPFGGFTFYADSVKGRFTISADTSKNTAYLQMNSLRAEDTAVYYCARGYSSFGDYWGQGTLVTVSS
VL: DIQMTQSPSSLSASVGDRVTITCRASQDVNGSVAWYQQKPGKAPKLLISSSASLYSGVPSRFSGSGSGTDFTLTISSLQPEDFATYYCQQGWSYPLTFGQGTKVEIKR
B5: P05 (antibody, V domains shown)
VH: B2 VH with F29I, S31D, W32Y, Y59F
VL: B4 VL with N30G, G31S, A52P, S53Y, G91Y, W92Y, S93D
B6: F10 (antibody, V domains shown)
VH: QVQLVQSGAEVKKPGSSVKVSCTSSEVTFSSFAISWVRQAPGQGLEWLGGISPMFGTPNYAQKFQGRVTITADQSTRTAYMDLRSLRSEDTAVYYCARSPSYICSGGTCVFDHWGQGTLVTVSA
VL: IQPGLTQPPSVSKGLRQTATLTCTGNSNNVGNQGAAWLQQHQGHPPKLLSYRNNDRPSGISERFSASRSGNTASLTITGLQPEDEADYYCSTWDSSLSAVVFGGGTKLTVLG
B7: P06 (antibody, V domains shown)
VH: EVQLVESGGGLVQPGGSLRLSCAASGFTIGGYWIHWVRQAPGKGLEWVAGIGPYWGSTYYADSVKGRFTISADTSKNTAYLQMNSLRAEDTAVYYCARFNNWFWNVMDYWGQGTLVTVSS
VL: B2 VL with N31G, D32G, S50G, A51T, R52S, Y91S, Y92S
B8: P11 (antibody, V domains shown)
VH: B7 VH with G30S, G31S, Y32F, Y54F, Y59F, N101D, W104Y, N105H, V106G
VL: B2 VL with G30D, D32N, S50Y, R52S, G53W, Y91S, Y92S, N93G, F94G, I96V
B9: P12 (antibody, V domains shown)
VH: B7 VH with G31D, W33Y, Y54S, Y59S, N100Y, W102N, F103H, N105G, V106F
VL: B2 VL with N31Y, D32W, S49Y, S50W, A51T, R52S, Y92S, F94W
B10: CR8020 (antibody, V domains shown)
VH: EVQLQQSGAEVKTPGASVKVSCKASGYTFTSFGVSWIRQAPGQGLEWIGWISAYNGDTYYAQKFQARVTMTTDTSTTTAYMEMRSLRSDDTAVYYCAREPPLFYSSWSLDNWGQGTLVTVSS
VL: EIVMTQSPGTLSLSPGERATLSCRASQSVSMNYLAWFQQKPGQAPRLLIYGASRRATGIPDRISGSGSGTDFTLTISRLEPADFAVYYCQQYGTSPRTFGQGAKVEIKR

target: full-length H5 A/Vietnam/1203/2004 HA expressed on 293T cells (influenza A virus A/Vietnam/1203/2004 (H5N1)); experiment: flow cytometry, HA-expressing 293T

Molecule | EC50 [µg/mL]
FI6V3 (antibody) | 0.61
B1 | 0.65
B2 | 1.18
B3 | 5.94
B4 | 3.26
B5 | 0.19
B6 | 0.59
B7 | 0.26
B8 | 2.42
B9 | 6.54

target: recombinant H7N9 AH/13 HA trimer (hemagglutinin ectodomain of A/Anhui/1-BALF_RG17/2013) (influenza A virus A/Anhui/1-BALF_RG17/2013 (H7N9)); experiment: ELISA, coated HA

Molecule | EC50 [µg/mL]
B10 | 0.069
